The target of assay [1] is H3N2 WT and E119V mutant neuraminidase (UniProt Q91MA2, E119V, species not given). The conditions noted are these: read-out: H3N2 E119V IC50; H3N2 E119V mutant.
For assay [2], the target named is H3N2 WT and E119V mutant neuraminidase (UniProt Q91MA2). The settings on record: read-out: H3N2 WT IC50; H3N2 WT.
For assay [3], the system named is A/California/04/09/H1N1 pdm. Kind of assay: Serial passage for selection of resistant virus, A549 cells. The conditions noted are these: baloxavir 0.5 nM, oseltamivir 200 nM.
Assay [4] has as its system A/California/07/2009 H1N1 pdm. The conditions noted are these: baloxavir 4 nM, oseltamivir 200 nM.
Another assay has as its system A/WSN/1933 H1N1. Briefly: Serial passage for selection of resistant virus, MDCK cells. The conditions noted are these: baloxavir 4 nM, oseltamivir 50 nM.
Assay [5] has as its target neuraminidase resistant mutants (lysates) (UniProt Q91MA2, E119V, species not given).
Assay [6] deals with neuraminidase resistant mutants (lysates) (UniProt Q91MA2, R292K, species not given).
For assay [7], the target named is neuraminidase resistant mutants (lysates) (UniProt Q91MA2).
Assay [8] deals with lung cytokines. Kind of assay: Study #55: lung cytokine levels day 4. In kind it is in vivo, BALB/c mice. The settings on record: day 4 post-infection; 15 mg/kg PO, BID × 4.
In assay [9] the test system is lung cytokines. Kind of assay: Study #58: lung cytokine levels day 4. Type of assay: in vivo, BALB/c mice. The conditions noted are these: day 4 post-infection; 15 mg/kg PO, BID × 4.

`C#CCOCCOCCOCCOCCC(=O)N(CCOCCNC(=O)OC[C@@H](O)[C@@H](O)[C@@H]1OC(C(=O)O)=C[C@H](NC(=N)N)[C@H]1NC(C)=O)CCOCCNC(=O)OC[C@@H](O)[C@@H](O)[C@@H]1OC(C(=O)O)=C[C@H](NC(=N)N)[C@H]1NC(C)=O`: the figures for the IC50 in assay [1] and in assay [2] were 14000 nM and 4430 nM, respectively.
Consider `C#CCOCCOCCOCCOCCC(=O)N(CCCCNC(=O)O[C@@H]([C@@H]1OC(C(=O)O)=C[C@H](NC(=N)N)[C@H]1NC(C)=O)[C@H](O)CO)CCOCCNC(=O)O[C@@H]([C@@H]1OC(C(=O)O)=C[C@H](NC(=N)N)[C@H]1NC(C)=O)[C@H](O)CO`, for which the IC50 in assay [1] amounted to 174 nM; in assay [2], 33.6 nM.
As to `C#CCOCCOCCOCCOCCNC(=O)O[C@@H]([C@@H]1OC(C(=O)O)=C[C@H](NC(=N)N)[C@H]1NC(C)=O)[C@H](O)CO`, the IC50 in [1] was 147 nM; in [2], 32.9 nM.
Take `CCOC(=O)C1=C[C@@H](OC(CC)CC)[C@H](NC(C)=O)[C@@H](N)C1`: the “Passage after which titers reached PBS control levels” value (from here on “Passage”) in assay [3] is given as 11 passages; in [4], 8 passages; in the assay on A/WSN/1933 H1N1 it was 10 passages.
On to `C#CCOCCOCCOCCOCCNC(=O)CO[C@@H]([C@@H]1OC(C(=O)O)=C[C@H](NC(=N)N)[C@H]1NC(C)=O)[C@H](O)CO`, for which the IC50 in assay [1] stood at 23.2 nM; in [2], 13.2 nM.
The like results for `C#CCOCCOCCOCCOCCN(C)C(=O)O[C@@H]([C@H]1OC(C(=O)O)=C[C@@H](NC(=N)N)[C@@H]1NC(C)=O)[C@H](O)CO` were, in that order, 629 nM and 81 nM.
As to `C#CCOCCOCCOCCOCCC(=O)N(CCOCCOCCOCCNC(=O)O[C@@H]([C@@H]1OC(C(=O)O)=C[C@H](NC(=N)N)[C@H]1NC(C)=O)[C@H](O)CO)CCOCCOCCOCCNC(=O)O[C@@H]([C@@H]1OC(C(=O)O)=C[C@H](NC(=N)N)[C@H]1NC(C)=O)[C@H](O)CO`, the figures for the IC50 in assay [1] and in assay [2] were 108 nM and 31.2 nM, respectively.
Take `C#CCOCCOCCOCCOCCC(=O)N(CCOCCNC(=O)O[C@@H]([C@@H]1OC(C(=O)O)=C[C@H](NC(=N)N)[C@H]1NC(C)=O)[C@H](O)CO)CCOCCNC(=O)O[C@@H]([C@@H]1OC(C(=O)O)=C[C@H](NC(=N)N)[C@H]1NC(C)=O)[C@H](O)CO`: the IC50 came out at 679 nM in assay [5]; 994 nM in [6]; 21.1 nM in assay [7]; 186 nM in assay [1]; 33.6 nM in assay [2].
Turning to `C#CCOCCOCCOCCOCCNC(=O)CO[C@@H]([C@@H]1OC(C(=O)O)=C[C@H](NC(=N)N)[C@H]1NC(C)=O)[C@H](O)CNC(=O)C1CC1`, the results for the IC50 in [1] and in assay [2] were 529 nM and 95.7 nM, respectively.
On to baloxavir, for which the “Passage” value in assay [3] is reported as 5 passages. In addition, in the assay with lung cytokines [8], the “IL-6 fold-change as compared to uninfected control” value is given as 1.05 fold-change, the “INF-γ fold-change as compared to uninfected control” value was 0.94 fold-change, the “KC fold-change as compared to uninfected control” value amounted to 0.85 fold-change and the “MCP-1 fold-change as compared to uninfected control” value was determined as 1.53 fold-change. Also, in the assay with lung cytokines [8], the “MIP-1α fold-change as compared to uninfected control” value is recorded as 0.97 fold-change and the “TNF-α fold-change as compared to uninfected control” value was 1.12 fold-change. Moreover, the “Passage” value in assay [4] was determined as 6 passages. The “Passage” value in the assay on A/WSN/1933 H1N1 was 5 passages. For the same molecule, in the assay with lung cytokines [9], the “IL-6 fold-change as compared to uninfected control” value came to 0.99 fold-change, the “KC fold-change as compared to uninfected control” value turned out to be 0.88 fold-change, the “MCP-1 fold-change as compared to uninfected control” value is 0.80 fold-change and the “MIP-1α fold-change as compared to uninfected control” value is given as 1.04 fold-change. The “TNF-α fold-change as compared to uninfected control” value with lung cytokines [9] is given as 1.07 fold-change.
As to `C#CCOCCOCCOCCOCCC(=O)N(CCOCCNC(=O)O[C@@H]([C@@H]1OC(C(=O)O)=C[C@H](NC(=N)N)[C@H]1NC(C)=O)[C@H](O)CO)CCOCCOCCNC(=O)O[C@@H]([C@@H]1OC(C(=O)O)=C[C@H](NC(=N)N)[C@H]1NC(C)=O)[C@H](O)CO`, the half-inhibitory concentration (IC50) in assay [1] was determined as 166 nM; in [2] it was 33 nM.
For `C#CCOCCOCCOCCOCCC(=O)N(CCCCCCNC(=O)O[C@@H]([C@@H]1OC(C(=O)O)=C[C@H](NC(=N)N)[C@H]1NC(C)=O)[C@H](O)CO)CCOCCNC(=O)O[C@@H]([C@@H]1OC(C(=O)O)=C[C@H](NC(=N)N)[C@H]1NC(C)=O)[C@H](O)CO`, the IC50 stood at 158 nM in [1] and 32.9 nM in assay [2].
On to `C#CCOCCOCCOCCOCCC(=O)N(CCCCNC(=O)O[C@@H]([C@@H]1OC(C(=O)O)=C[C@H](NC(=N)N)[C@H]1NC(C)=O)[C@H](O)CO)CCOCCOCCNC(=O)O[C@@H]([C@@H]1OC(C(=O)O)=C[C@H](NC(=N)N)[C@H]1NC(C)=O)[C@H](O)CO`, for which the IC50 in assay [1] worked out at 164 nM; in assay [2], 34.5 nM.

The values are drawn from patent US12427200B2, “Compositions and methods for the treatment of viral infections” (priority 2019, dated 2025).
